Test results reported in patent US20260234738A1.

Molecular target: UNMODIFIED-SARS-CoV-2 Spike Protein (RBD)(R319-F541).mmH (SARS-CoV-2)

## Human_ACE2 (from UniProt Q9BYF1 18-740) (receptor; other documents disagree on this pair)
  binding signal (MFI): 5730 MFI and 10700 MFI and 9270 MFI

Where “and” joins values, the source holds several entries; their conditions need not be identical. Identical values can stand only once.
